Compound potency records, mixed from different reports. Data source: NIAID ChemDB in PubChem.

All rows: cytotoxicity tests; cells: A549; read-out: CC50

Neighbouring rows are from separate reports. Blank or dashed fields: not listed here. CCn: concentration that lowers growth or viability of the cells by n%.

smiles | read by | result
O=c1c2cccnc2[se]n1C1CCCCC1 |  | 6 µg/mL
O=c1c2ccccc2[se]n1C(CO)CO | visual reading | 15 µg/mL
COc1ccc(Cc2noc(C3=CC4(CCN(CC5CCCO5)CC4)c4ccccc43)n2)cc1 | resazurin | 10.2 µM
O=c1cc(-c2ccc(Oc3c(O)cc4oc(-c5ccc(O)cc5)cc(=O)c4c3O)cc2)oc2cc(O)cc(O)c12 | visual reading | 22 µg/mL
COc1cc([C@@H]2c3cc4c(cc3[C@H](OC(C)=O)[C@@H]3COC(=O)[C@@H]23)OCO4)cc(OC(C)=O)c1OC(C)=O |  | 2.2 µM
COc1cc(-c2ccccc2)c(OC)c(OC)c1O | sulforhodamine / absorbance | >50 µM
CCCCN=C(N)c1ccc(N2CCCN(c3ccc(C(N)=NCCCC)cc3)CC2)cc1 |  | >18.6 µg/mL
COC(=O)[C@@H]1[C@H](c2cc(OC)c3nc4cc(Cl)c(Cl)cc4nc3c2)c2cc3c(cc2C2=NOC[C@@H]21)OCO3 |  | >18 µM
CC(C)(C)c1ccc(CN2CCC3(CC2)C(=O)N(CC2CC2)c2ccccc23)cc1 | resazurin | 33 µM
CCCCSc1n[nH]c(-c2ccc(O)cc2)n1 | MTT | >100 µg/mL
Nc1ccccc1[Se][Se]c1ccccc1N | MTT | 7 µg/mL
N/C(=N\C1=NCCN1)c1ccc(NC(=O)C2CC2C(=O)Nc2ccc(/C(N)=N/C3=NCCN3)cc2)cc1 |  | 284.1 µg/mL
O=c1c2cccnc2[se]n1-c1ccccc1 |  | 20 µg/mL
O=C1C[C@@H](c2ccc(O)cc2)Oc2cc(O)c(-c3c(O)cc4c(c3O)C(=O)C[C@@H](c3ccc(O)cc3)O4)c(O)c21 | visual reading | 22 µg/mL
COc1cc2c(O[C@@H]3OC[C@](O)(COC(C)=O)[C@H]3O)c3c(c(-c4ccc5c(c4)OCO5)c2cc1OC)C(=O)OC3 | absorbance | 4.632 µM
Cc1ccc(-c2noc(C3=CC4(CCN(CC5CCCO5)CC4)c4ccccc43)n2)cn1 | resazurin | >100 µM
CC(C)n1[se]c2ccccc2c1=O | visual reading | 3.5 µg/mL
N=C(N)c1ccc(N2CCCN(c3ccc(C(=N)N)cc3)CC2)cc1 |  | >83.5 µg/mL
O=C1Nc2ccccc2C12CCN(Cc1ccccc1)CC2 | resazurin | >50 µM
CC(C)=CC[C@H]1C[C@]2(C[C@H]3CCC(C)(C)C=C3C)C(=O)C3=C(OC(C)(C)CC3)[C@@](C(=O)c3ccccc3)(C2=O)C1(C)C | sulforhodamine / absorbance | >50 µM
COc1ccc(CN2C(=O)C3(CCN(CC4CC4)CC3)c3ccccc32)cc1 | resazurin | >50 µM
c1cc(C2=NCCN2)ccc1CC1CCCN(c2ccc(C3=NCCN3)cc2)C1 |  | 27.7 µg/mL
S=c1nc(-c2ccco2)[nH][nH]1 | MTT | >100 µg/mL
COc1ccc(-c2noc(C3=CC4(CCN(Cc5nc(C)no5)CC4)c4ccccc43)n2)cc1 | resazurin | 37 µM
COc1cc([C@@H]2c3cc4c(cc3[C@H](OC(C)=O)[C@@H]3COC(=O)[C@H]23)OCO4)cc(OC)c1O |  | 0.23 µM
COC(OC)C(C)n1[se]c2ccccc2c1=O | visual reading | 2.5 µg/mL
O=c1cc(-c2ccc(O)c(-c3c(O)cc4oc(-c5ccc(O)cc5)cc(=O)c4c3O)c2)oc2cc(O)cc(O)c12 | visual reading | 56 µg/mL
O=C(Nc1ccccc1[Se][Se]c1ccccc1NC(=O)c1ccccc1)c1ccccc1 | MTT | 50 µg/mL
O=c1c2cc(O)c(O)cc2oc2cc(O)cc(O)c12 | sulforhodamine / absorbance | 44.85 µM
S=c1[nH]nc(-c2ccc(Cl)cc2)s1 | MTT | >100 µg/mL
CCCn1[se]c2ccccc2c1=O | visual reading | 3.5 µg/mL
O=c1c2cccnc2[se]n1N(c1ccccc1)c1ccccn1 |  | 70 µg/mL
COc1cc(O)cc2oc3cc(O)c(O)cc3c(=O)c12 | sulforhodamine / absorbance | >50 µM
C/C=C/c1ccc2c(c1)[C@H](C)[C@@H](c1ccc(O)cc1)O2 | sulforhodamine / absorbance | 41.7 µM
CCCCNS(=O)(=O)c1ccc(NC(=O)CCC[Se][Se]CCCC(=O)Nc2ccc(S(=O)(=O)NCCCC)cc2)cc1 | MTT | 40 µg/mL
COc1cc(-c2ccccc2)c(O)c(OC)c1O | sulforhodamine / absorbance | >50 µM
COc1cc([C@@H]2c3cc4c(cc3[C@H](OC(C)=O)[C@@H]3COC(=O)[C@@H]23)OCO4)cc2c1OC1(N3CCOCC3)CCCCC1O2 |  | 8.66 µM
O=c1c2ccccc2[se]n1-c1cccnc1 |  | 3 µg/mL
COc1cc([C@@H]2c3cc4c(cc3[C@H](OC(C)=O)[C@@H]3COC(=O)[C@@H]23)OCO4)cc2c1OC1(N3CCCC3)CCCCC1O2 |  | 2.02 µM
COc1ccc(-c2noc(C3=CC4(CCN(CC(C)O)CC4)c4ccccc43)n2)cc1 | resazurin | 3 µM

For reference, 4 entries again:

smiles | read by | result
COc1cc([C@@H]2c3cc4c(cc3[C@H](OC(C)=O)[C@@H]3COC(=O)[C@@H]23)OCO4)cc2c1OC1(N3CCCC3)CCCCC1O2 |  | 2.02 µM
COc1cc([C@@H]2c3cc4c(cc3[C@H](OC(C)=O)[C@@H]3COC(=O)[C@@H]23)OCO4)cc2c1OC1(N3CCOCC3)CCCCC1O2 |  | 8.66 µM
CCCn1[se]c2ccccc2c1=O | visual reading | 3.5 µg/mL
C/C=C/c1ccc2c(c1)[C@H](C)[C@@H](c1ccc(O)cc1)O2 | sulforhodamine / absorbance | 41.7 µM